Data as given in PubChem BioAssay AID651958 (The Scripps Research Institute Molecular Screening Center, 2012).
Only a part is listed here, and it is no random draw. Some structures show a salt or complex split into parts, the way the source records it. Calls of active or inactive are those of the source. No stated cut-off is given here; in the data, active means inhibition above about 30%; inactive means the rest.

The compounds below were run on Crimean-Congo hemorrhagic fever virus L polyprotein viral ovarian tumor (vOTU) protease domain (assay: CCHFV vOTU protease inhibitors, primary screen, biochemical, Pep-AMC substrate, fluorescence (AID 651958; further: 0% = vehicle wells with enzyme and 100% = no enzyme wells)). Conditions: at 11.5 µM, active compounds read high.
With Cc1cccc(C)c1OP(C)(N)=O (configuration not stated) the inhibition was inactive: 20.5%.
For CC(C)(C)c1ccc(OP(C)(=O)Nc2ccc(SC(F)(F)F)cc2)cc1 (configuration not stated), the inhibition was active: 38.8%.
For O=[N+]([O-])c1ccc2c(c1)C=Nc1ccccc1O2, the inhibition was inactive: 8.14%.
In the case of CCOC(=O)c1ccc(NP(C)(=O)Oc2ccccc2)cc1 (configuration not stated), the inhibition is reported as inactive: 1.23%.
In the case of Cc1ccc(NP(C)(=O)Oc2ccccc2)c(C)c1 (configuration not stated), the inhibition is reported as inactive: 1.34%.
With COc1ccccc1OP(C)(=O)Nc1ccc(C)cc1 (configuration not stated) the inhibition was inactive: 17.2%.
With COc1ccc(OP(C)(=O)Nc2cccc(F)c2)cc1 (configuration not stated) the inhibition was inactive: -7.26%.
With COc1ccccc1OP(C)(=O)Nc1cc(Cl)ccc1C (configuration not stated) the inhibition was inactive: -8.26%.
In the case of Cc1cc(C)cc(OP(C)(N)=O)c1 (configuration not stated), the inhibition is reported as inactive: 5.66%.
For CP(=S)(Nn1cnnc1)Oc1ccccc1 (configuration not stated), the inhibition was inactive: -3.31%.
In the case of COc1ccccc1OP(C)(=O)Nc1ccccc1 (configuration not stated), the inhibition is reported as inactive: -6.43%.
For CP(=O)(Nc1ccccc1Br)Oc1ccccc1 (configuration not stated), the inhibition was inactive: 18.2%.
With CP(=O)(Oc1ccccc1)OC(c1ccccc1)C(F)(F)F (configuration not stated) the inhibition was inactive: -12.2%.
For CP(=O)(Nc1ccc(SC(F)(F)F)cc1)Oc1ccc(Cl)cc1 (configuration not stated), the inhibition was inactive: 6.92%.
With Cc1cccc(C)c1OP(C)(=O)Nc1ccc(SC(F)(F)F)cc1 (configuration not stated) the inhibition was inactive: -1.83%.
With Cc1cc(C)cc(OP(C)(=O)Nc2ccc(SC(F)(F)F)cc2)c1 (configuration not stated) the inhibition was inactive: -11.6%.
For CCc1ccc(OP(C)(=O)N2CCN(c3ccc([N+](=O)[O-])cc3)CC2)cc1 (configuration not stated), the inhibition was inactive: 0.8%.
For CP(=O)(NC(=O)Nc1ccccc1)Oc1ccccc1 (configuration not stated), the inhibition was inactive: -1.43%.
CCOP(C)(=S)SCC(=O)NC(C)C(=O)O (configuration not stated) was tested, and the inhibition was inactive: 4.03%.
O=[N+]([O-])c1cc([N+](=O)[O-])c(O)c([N+](=O)[O-])c1.c1ccc(Oc2ccncc2)cc1 was tested, and the inhibition was inactive: 10.4%.
With CCOC(=O)c1ccc(NP(C)(=O)Oc2ccc(OC)cc2)cc1 (configuration not stated) the inhibition was inactive: 7.48%.
For CP(=O)(Nc1ccccn1)Oc1ccc(Cl)cc1 (configuration not stated), the inhibition was inactive: -8.52%.
For COc1ccc(OP(C)(=O)Nc2ccc(Br)cc2)cc1 (configuration not stated), the inhibition was inactive: 2.38%.
In the case of CCN(CC)CC(O)COC(=O)C(O)(c1ccccc1)C1CCCCC1 (configuration not stated), the inhibition is reported as inactive: -6.28%.
In the case of CCc1ccc(OP(C)(=O)Nc2cccnc2)cc1 (configuration not stated), the inhibition is reported as inactive: -10.6%.
For CP(=O)(Oc1ccccc1)N1CCOC1=O (configuration not stated), the inhibition was inactive: 15%.
For O=C(OCCCN1CCCC1)C(O)(c1ccccc1)C1CCCCC1 (configuration not stated), the inhibition was inactive: 1.67%.
With COc1ccccc1OP(C)(=O)Nc1c(C)n(C)n(-c2ccccc2)c1=O (configuration not stated) the inhibition was inactive: -1.07%.
For CP(=O)(Nc1ccc(Cl)cc1)Oc1ccc(F)cc1 (configuration not stated), the inhibition was inactive: 18%.
CC(C)(C)c1ccc(OP(C)(=O)O)cc1 was tested, and the inhibition was inactive: 18.3%.
COc1ccccc1OP(C)(=O)Nc1ccccc1Br (configuration not stated) was tested, and the inhibition was inactive: -14.3%.
CN(C)C(=O)c1c([N+](=O)[O-])cc([N+](=O)[O-])cc1[N+](=O)[O-] was tested, and the inhibition was inactive: 14%.
With Nc1ccc2c(ccc3cccnc32)n1.O=[N+]([O-])c1cc([N+](=O)[O-])c(O)c([N+](=O)[O-])c1 the inhibition was inactive: -11.3%.
For CP(=O)(OC12CC3CC(CC(C3)C1)C2)OC12CC3CC(CC(C3)C1)C2, the inhibition was inactive: -3.44%.
With CCOC(=O)c1ccc(NP(C)(=O)Oc2ccc(Cl)cc2)cc1 (configuration not stated) the inhibition was inactive: -8.61%.
In the case of Cc1cc(C)cc(OP(C)(=O)Nc2cccc(C(F)(F)F)c2)c1 (configuration not stated), the inhibition is reported as inactive: 22.4%.
In the case of O=C1C(O)=C([N+](=O)[O-])C(=O)C(O)=C1[N+](=O)[O-], the inhibition is reported as inactive: -2.36%.
With COc1ccc(OP(C)(=O)Nc2ccccc2Br)cc1 (configuration not stated) the inhibition was inactive: -16.6%.
COc1ccccc1OP(C)(=O)Nc1ccc(C)c(C)c1 (configuration not stated) was tested, and the inhibition was inactive: -9.3%.
CP(=O)(OCCOc1ccccc1)OCCOc1ccccc1 was tested, and the inhibition was inactive: 12%.
In the case of CP(=O)(Nc1ccc(Cl)cc1Cl)Oc1ccccc1 (configuration not stated), the inhibition is reported as inactive: 9.23%.
For CCCCCCCCCCCCCCCC1C[N+](C)(C)CCOP(C)(=O)O1 (configuration not stated), the inhibition was inactive: 14.2%.
With COc1ccccc1OP(C)(=O)Nc1ccc(Br)cc1 (configuration not stated) the inhibition was inactive: 7.07%.
With CN(C)CCOC(=O)C(O)(c1ccccc1)C1CCCC1 (configuration not stated) the inhibition was inactive: -5.12%.
COc1ccc(OP(C)(=O)Nc2ccccn2)cc1 (configuration not stated) was tested, and the inhibition was inactive: -0.86%.
In the case of O=[N+]([O-])c1cc([N+](=O)[O-])c(Nc2ccccn2)c([N+](=O)[O-])c1, the inhibition is reported as active: 37.6%.
With Cc1c(NP(C)(=O)Oc2ccc(C(C)C)cc2)c(=O)n(-c2ccccc2)n1C (configuration not stated) the inhibition was inactive: -3.88%.
CCc1ccc(OP(C)(=O)O)cc1 was tested, and the inhibition was inactive: -2.6%.
In the case of COc1ccccc1OP(C)(=O)Nc1ccc(C)cc1C (configuration not stated), the inhibition is reported as inactive: -5.98%.
With CP(=O)(Nc1ccccn1)Oc1ccccc1 (configuration not stated) the inhibition was inactive: 8.57%.
O=[N+]([O-])c1cc([N+](=O)[O-])c(Nc2ccc(Cl)cc2)c([N+](=O)[O-])c1 was tested, and the inhibition was inactive: 12%.
For CC(C)c1ccc(OP(C)(=O)Nc2ccc(SC(F)(F)F)cc2)cc1 (configuration not stated), the inhibition was inactive: 16.7%.
With CP(=O)(Nc1ccccc1F)Oc1ccccc1 (configuration not stated) the inhibition was inactive: 9.08%.
O=C(OCCN1CCN(CCOCc2ccccc2)CC1)C(O)(c1ccccc1)c1ccccc1 was tested, and the inhibition was inactive: -12.9%.
For O=C(OC1CN2CCC1CC2)c1ccc([N+](=O)[O-])cc1 (configuration not stated), the inhibition was inactive: 5.86%.
In the case of COc1ccc2c(c1O)-c1c(O)c(OC)cc3c1[C@H](C2)[N+](C)(C)CC3.O=[N+]([O-])c1cc([N+](=O)[O-])c([O-])c([N+](=O)[O-])c1[O-], the inhibition is reported as inactive: -17.9%.
In the case of CCN(CC)CCCNc1ccccc1[N+](=O)[O-].O=[N+]([O-])c1cc([N+](=O)[O-])c(O)c([N+](=O)[O-])c1, the inhibition is reported as inactive: 10.9%.
With COc1ccc(OP(C)(=O)Nc2ccc(SC(F)(F)F)cc2)cc1 (configuration not stated) the inhibition was inactive: 4.96%.
In the case of CCOC(=O)c1ccc(NP(C)(=O)Oc2ccc(F)cc2)cc1 (configuration not stated), the inhibition is reported as inactive: -9.07%.
With CCN(CC)CCCOC(=O)C(O)(c1ccccc1)C1CCCCC1 (configuration not stated) the inhibition was inactive: 10.2%.
Cc1c([N+](=O)[O-])cc([N+](=O)[O-])c(Br)c1[N+](=O)[O-] was tested, and the inhibition was inactive: 9.94%.
With O=[N+]([O-])c1cc([N+](=O)[O-])c(OC2CCCCC2O)c([N+](=O)[O-])c1 (configuration not stated) the inhibition was inactive: 3.91%.
In the case of CCCCCOc1ccc(NP(C)(=O)Oc2ccc(Cl)cc2Cl)cc1 (configuration not stated), the inhibition is reported as inactive: 13.8%.
CP(=O)(Nc1ccccc1)Oc1ccc(F)cc1 (configuration not stated) was tested, and the inhibition was inactive: 3.17%.
COc1ccc(OP(C)(=O)Nc2cccc(Br)c2)cc1 (configuration not stated) was tested, and the inhibition was inactive: 22%.
In the case of COc1ccc(NP(C)(=O)Oc2ccccc2OC)cc1 (configuration not stated), the inhibition is reported as inactive: -5.7%.
With CN(C)CCOC(=O)C(O)(c1ccccc1)C1CCCCC1 (configuration not stated) the inhibition was inactive: -0.94%.
O=[N+]([O-])c1cc([N+](=O)[O-])c(NCC2CCS(=O)(=O)C2)c([N+](=O)[O-])c1 (configuration not stated) was tested, and the inhibition was inactive: 14.7%.
With Cc1cc(-c2cccc3ccccc23)c(C)cn1.O=[N+]([O-])c1cc([N+](=O)[O-])c(O)c([N+](=O)[O-])c1 the inhibition was inactive: 14.2%.
In the case of O=[N+]([O-])c1ccc(OP2(=O)COCCO2)cc1 (configuration not stated), the inhibition is reported as inactive: 7.67%.
In the case of Cc1c(C(c2ccc3c(c2)OCO3)c2c(C)n(C)n(-c3ccccc3)c2=O)c(=O)n(-c2ccccc2)n1C.O=[N+]([O-])c1cc([N+](=O)[O-])c(O)c([N+](=O)[O-])c1, the inhibition is reported as inactive: 1.59%.
With CP(=O)(Nc1ccc(SC(F)(F)F)cc1)Oc1ccc(F)cc1 (configuration not stated) the inhibition was inactive: 11.3%.
In the case of CCOP(=O)(CC)OCC, the inhibition is reported as inactive: 1.62%.
CCOP(C)(=S)SCC(=O)NC(C)(CC)C(=O)O (configuration not stated) was tested, and the inhibition was inactive: -12.2%.
With CP(=O)(Nc1ccc2c(c1)OCCO2)Oc1ccccc1 (configuration not stated) the inhibition was inactive: 1.25%.
In the case of O=[N+]([O-])c1cc([N+](=O)[O-])c(C(F)(F)F)c([N+](=O)[O-])c1O, the inhibition is reported as inactive: 21.1%.
In the case of Cc1ccccc1NP(C)(=O)Nc1ccccc1C, the inhibition is reported as inactive: 3.51%.
